This experiment deals with Replicase polyprotein 1ab (Severe acute respiratory syndrome coronavirus, UniProt P0C6X7). The experiment in a line: Various Assay.

SMILES strings stand for the structures.

`O=c1c(OC2O[C@H](CO)[C@H](O)[C@@H](O)[C@H]2O)c(-c2ccc(O)c(O)c2)oc2cc(O)cc(O)c12` (some centres not stated) [cmdc.202100576, 12d] showed an IC50 of 49.7 µM.

As to `O=c1c(O[C@@H]2O[C@H](CO)[C@H](O)[C@H](O)[C@H]2O)c(-c2ccc(O)c(O)c2)oc2cc(O)cc(O)c12` [jm5b01461, Compound 84], the midpoint of inhibition, the IC50, lay at 50.5 µM.

One may read the IC50 as the concentration at which inhibition is half-maximal.

Values taken from BindingDB's records for doi:10.1002/cmdc.202100576 (Experimental Drug Development Centre, 2021).
